Patent US7582627B2, “3-aminoquinazolin-2,4-dione antibacterial agents” (Warner-Lambert Company, priority 2000, dated 2009)

Sequences of proteins named here, by UniProt entry; tags and fusion partners are left off.
UniProt P0AES4, whole entry: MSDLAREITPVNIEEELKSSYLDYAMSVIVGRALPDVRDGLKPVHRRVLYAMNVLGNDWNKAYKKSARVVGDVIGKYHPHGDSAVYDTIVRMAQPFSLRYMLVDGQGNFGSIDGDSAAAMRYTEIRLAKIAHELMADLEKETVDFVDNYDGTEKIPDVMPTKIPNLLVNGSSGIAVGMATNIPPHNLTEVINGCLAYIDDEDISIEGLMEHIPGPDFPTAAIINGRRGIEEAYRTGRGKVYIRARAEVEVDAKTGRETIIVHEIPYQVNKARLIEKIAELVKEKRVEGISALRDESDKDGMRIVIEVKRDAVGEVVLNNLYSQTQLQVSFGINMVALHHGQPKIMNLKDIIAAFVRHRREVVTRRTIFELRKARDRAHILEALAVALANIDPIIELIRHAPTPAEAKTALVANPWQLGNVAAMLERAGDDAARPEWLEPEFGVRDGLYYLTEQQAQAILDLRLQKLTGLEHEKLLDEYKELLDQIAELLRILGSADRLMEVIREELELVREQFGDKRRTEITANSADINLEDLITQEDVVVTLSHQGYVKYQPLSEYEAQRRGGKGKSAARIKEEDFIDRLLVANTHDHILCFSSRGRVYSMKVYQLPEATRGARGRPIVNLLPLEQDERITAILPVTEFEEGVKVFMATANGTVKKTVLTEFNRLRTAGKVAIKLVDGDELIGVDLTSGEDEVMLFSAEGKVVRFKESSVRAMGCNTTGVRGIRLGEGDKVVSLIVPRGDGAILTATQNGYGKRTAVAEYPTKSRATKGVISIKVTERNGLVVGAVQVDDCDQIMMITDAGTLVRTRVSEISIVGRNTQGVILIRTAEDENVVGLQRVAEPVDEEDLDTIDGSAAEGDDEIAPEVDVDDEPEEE

Key:
S. pyogenes C203 = assay: Antibacterial assay, microtitration MIC; assay type: cell-based; conditions: Gram positive; tested form: HCl
Procedure: (§1) The compounds of the present invention are tested against an assortment of Gram negative and Gram positive organisms using standard microtitration techniques (Cohen et al., Antimicrob. Agents Chemother., 1985; 28:766; Heifetz et al., Antimicrob. Agents Chemother., 1974; 6:124). The results of the evaluation of representative 3-aminoquinazolin-2,4-diones of Formula I are shown in Table 2 and compared to two 3-hydroxyquinazolin-2,4-diones.

E. coli MC4100 = assay: Antibacterial assay, microtitration MIC; assay type: cell-based; conditions: Gram negative; tested form: HCl
Procedure: as §1

E. coli Tol C = assay: Antibacterial assay, microtitration MIC; assay type: cell-based; conditions: Gram negative; tested form: HCl
Procedure: as §1

E. coli B90 = assay: Antibacterial assay, microtitration MIC; assay type: cell-based; conditions: Gram negative; tested form: HCl
Procedure: as §1

S. aureus 29213 = assay: Antibacterial assay, microtitration MIC; assay type: cell-based; conditions: Gram positive; tested form: HCl
Procedure: as §1

E. faecalis RB1 = assay: Antibacterial assay, microtitration MIC; assay type: cell-based; conditions: Gram positive; tested form: HCl
Procedure: as §1

E. coli gyrase = E. coli gyrase (Escherichia coli, UniProt P0AES4+P0AES6); assay: DNA gyrase supercoiling inhibition assay; conditions: read-out: E. coli gyrase IC50; supercoiling of relaxed pBR322, 30 minutes at 37° C.; tested form: HCl
Procedure: The effects of invention compounds on the activity of DNA gyrase is determined in the supercoiling inhibition assay, following reaction conditions recommended by the enzyme supplier (Lucent, Ltd., Leicester, UK). Reactions are performed in buffer G (35 mM Tris-HCl (pH 7.5), 24 mM KCl, 4 mM MgCl2, 2 mM DTT, 1.8 mM spermidine, 1 mM ATP, 0.1 mg/mL bovine serum albumin). Relaxed plasmid pBR322 (0.25 μg, Lucent, Ltd., Leicester, UK) is reacted with 1 U E. coli gyrase (Lucent, Ltd., Leicester, UK), in the absence or presence of test compounds, for 30 minutes at 37° C. Reactions are stopped by the addition of SDS and proteinase K to respective final concentrations of 1% and 0.5 mg/mL. After an additional 30 minutes at 37° C., one-tenth volume of 10× loading buffer (0.3% bromophenol blue, 16% Ficoll, 10 mM Na2HPO4) is added, and reactions are loaded onto agarose gels and electrophoresed. The concentration of representative invention compounds of Formula I inhibiting 50% of the supercoiling activity of DNA gyrase is given as an IC50 and recorded in Table 2.

Nn1c(=O)c2cc(F)c(N3CCNCC3)c(Cl)c2n(C2CC2)c1=O
Minimum Inhibitory Concentrations S. pyogenes C203 (S. pyogenes C203): >64 µg/mL | Minimum Inhibitory Concentrations E. coli MC4100 (E. coli MC4100): 16.0 µg/mL | Minimum Inhibitory Concentrations E. coli Tol C (E. coli Tol C): 2.0 µg/mL | Minimum Inhibitory Concentrations E. coli B90 (E. coli B90): 4.0 µg/mL | Minimum Inhibitory Concentrations S. aureus 29213 (S. aureus 29213): >64 µg/mL | Minimum Inhibitory Concentrations E. faecalis RB1 (E. faecalis RB1): >64 µg/mL | IC50 (E. coli gyrase): 26 µM
